PubChem BioAssay AID504761 – Drosophila RNAi Screening Center – 2011
Screen: 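Fly genes whose silencing reduces dengue virus type 2 infection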 (primary screen). System: D.Mel-2 cells from Drosophila. Knock-down reagent: long dsRNA against Drosophila genes. Challenge: infection with dengue virus type 2; dose and infection time not stated. Measurement: 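Cells stained for dengue envelope protein and imaged; percent of infected cells per well on duplicate plates, ranked by infection, with stained nuclei counted for cell number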. Scale: infection score: higher = more virus-infected cells; cell count: higher = more cells in the well. Call rule: 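Low infection ranks in the two replicates (chance level up to 0.065) followed by a retest with a 1.5-fold or larger significant decrease, p below 0.05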. Meaning of the calls: active = confirmed: knock-down lowers infection; inactive = not picked or not confirmed.
The screen tested about 22,000 reagents; below is an unselected part of those with a known target gene and a result. In the full data, 116 (0.52%) were called active. 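Calls depend on retest data that are not deposited; infection was ranked per plate without normalising between plates; the unit of the infection score is not given.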 The raw values are shown without normalisation. Reagents against one gene are numbered here. Not given: the amount of reagent, the time to read-out.

infection score, replicate 1	infection score, replicate 2	cell count, replicate 1	cell count, replicate 2	Outcome	gene	dsRNA no.
1.92	2.56	6617	6960	inactive	upd2 (GeneID 32805)	1
6.72	2.39	5747	5783	inactive	upd2 (GeneID 32805)	2
2.23	0.67	6471	6551	inactive	Sgsh (GeneID 42266)	1
28.1	18.8	4752	5985	inactive	Uba3 (GeneID 36539)	1
13.9	10.7	6380	6389	inactive	CG14715 (GeneID 41403)	1
11	12	4916	4984	inactive	CG11699 (GeneID 32101)	1
9.24	14.9	6200	6288	inactive	CG11699 (GeneID 32101)	2
3.48	1.64	6009	6717	inactive	CG42367 (GeneID 318998)	1
3.01	5.97	6137	6210	inactive	CG42367 (GeneID 318998)	2
15.4	4.53	6080	6050	inactive	CG14989 (GeneID 38485)	1
2.04	1.53	6138	5802	inactive	CG14989 (GeneID 38485)	2
6.54	2.23	5570	6644	inactive	Gprk2 (GeneID 49045)	1
2.96	13.3	6241	1558	inactive	Gprk2 (GeneID 49045)	2
21.5	20.1	4849	5199	inactive	Lpt (GeneID 37795)	1
46.8	0.18	4686	552	inactive	Lpt (GeneID 37795)	2
2.56	8.72	6246	6058	inactive	CG31997 (GeneID 319064)	1
2.28	0.97	5885	6791	inactive	CG3544 (GeneID 33252)	1
1.84	2.77	6745	5990	inactive	CG32095 (GeneID 317849)	1
7.9	5.74	6353	6376	inactive	mre11 (GeneID 34565)	1
4.8	2.39	6417	6567	inactive	mre11 (GeneID 34565)	2
4.17	0.76	6230	5936	inactive	mre11 (GeneID 34565)	3
19.3	8.81	5013	6682	inactive	CG13579 (GeneID 37905)	1
4.93	8.61	6690	5735	inactive	CG13579 (GeneID 37905)	2
	0.23	435	426	inactive	CG9521 (GeneID 32414)	1
1.28	12.5	5874	6344	inactive	UBL3 (GeneID 32541)	1
2.43	11.5	5848	806	inactive	CG4325 (GeneID 31167)	1
3.22	2.68	5954	5820	inactive	CG4325 (GeneID 31167)	2
2.71	14.8	5871	4972	inactive	CG9757 (GeneID 41662)	1
1.92	3.5	6363	6972	inactive	CG9757 (GeneID 41662)	2
11.4	18.7	6860	6205	inactive	CG9757 (GeneID 41662)	3
0.37	1.09	6262	6218	inactive	CG14118 (GeneID 39465)	1
3.59	7.49	5854	6264	inactive	EMC10 (GeneID 40396)	1
2.65	3.41	6254	5627	inactive	CR15821 (GeneID 3771832)	1
4.51	2.17	6053	6503	inactive	CR15821 (GeneID 3771832)	2
1.26	8.45	6450	6403	inactive	CG7627 (GeneID 34148)	1
9.81	2.78	6136	6760	inactive	CG7627 (GeneID 34148)	2
3.51	2.24	5697	5528	inactive	Vav (GeneID 32920)	1
1.92	5.16	6087	5946	inactive	Vav (GeneID 32920)	2
4.57	11.3	6571	6331	inactive	CG34169 (GeneID 5740400)	1
0.98	3.46	6448	6793	inactive	CG7745 (GeneID 36210)	1
3.93	3.25	1656	676	inactive	CG7745 (GeneID 36210)	2
3.57	9.29	6351	6478	inactive	CG13157 (GeneID 36355)	1
2.31	2.74	6333	6353	inactive	CG13603 (GeneID 42838)	1
1.04	1.36	6364	6198	inactive	Gr98a (GeneID 43305)	1
9.25	12.2	6779	6818	inactive	Or49b (GeneID 36413)	1
15.6	14.7	5496	6101	inactive	ens (GeneID 38491)	1
1.88	4.99	6444	5831	inactive	ens (GeneID 38491)	2
1.5	4.59	6546	6576	inactive	CG14855 (GeneID 41789)	1
5.71	26.8	6816	4992	inactive	CG14855 (GeneID 41789)	2
6.38	6.82	6333	6392	inactive	CG7443 (GeneID 40992)	1
2.04	1.27	6821	6437	inactive	CG8675 (GeneID 32716)	1
26.6	6.13	6291	1386	inactive	CG8675 (GeneID 32716)	2
4.83	3.78	5014	5367	inactive	tilB (GeneID 33130)	1
2.09	21.7	6211	5056	inactive	PGAP5 (GeneID 34116)	1
5.14	11.4	6712	6541	inactive	PGAP5 (GeneID 34116)	2
7.79	6.74	5723	6546	inactive	CG17742 (retired record) (GeneID 38787)	1
2.46	3.4	5409	6373	inactive	jus (GeneID 43453)	1
10.8	9.14	6597	6752	inactive	jus (GeneID 43453)	2

Copied from the listing for reference:
infection score, replicate 1	infection score, replicate 2	cell count, replicate 1	cell count, replicate 2	Outcome	gene	dsRNA no.
1.92	3.5	6363	6972	inactive	CG9757 (GeneID 41662)	2
11.4	18.7	6860	6205	inactive	CG9757 (GeneID 41662)	3
0.37	1.09	6262	6218	inactive	CG14118 (GeneID 39465)	1
3.59	7.49	5854	6264	inactive	EMC10 (GeneID 40396)	1
2.65	3.41	6254	5627	inactive	CR15821 (GeneID 3771832)	1
4.51	2.17	6053	6503	inactive	CR15821 (GeneID 3771832)	2
